Data on 3 molecules can be found in publication PMC12154458, “High-Throughput Screens of Repurposing Hub and DOS Chemical Libraries Reveal Compounds with Novel and Potent Inhibitory Activity Against the Essential Non-Neuronal Acetylcholinesterase of Schistosoma mansoni (SmTAChE)” (International Journal of Molecular Sciences, 2025).

By UniProt entry, the sequences of proteins in these tests, tags left out. Residues count along the entry.
UniProt A0A3Q0KMM5, 27-661 limits assumed: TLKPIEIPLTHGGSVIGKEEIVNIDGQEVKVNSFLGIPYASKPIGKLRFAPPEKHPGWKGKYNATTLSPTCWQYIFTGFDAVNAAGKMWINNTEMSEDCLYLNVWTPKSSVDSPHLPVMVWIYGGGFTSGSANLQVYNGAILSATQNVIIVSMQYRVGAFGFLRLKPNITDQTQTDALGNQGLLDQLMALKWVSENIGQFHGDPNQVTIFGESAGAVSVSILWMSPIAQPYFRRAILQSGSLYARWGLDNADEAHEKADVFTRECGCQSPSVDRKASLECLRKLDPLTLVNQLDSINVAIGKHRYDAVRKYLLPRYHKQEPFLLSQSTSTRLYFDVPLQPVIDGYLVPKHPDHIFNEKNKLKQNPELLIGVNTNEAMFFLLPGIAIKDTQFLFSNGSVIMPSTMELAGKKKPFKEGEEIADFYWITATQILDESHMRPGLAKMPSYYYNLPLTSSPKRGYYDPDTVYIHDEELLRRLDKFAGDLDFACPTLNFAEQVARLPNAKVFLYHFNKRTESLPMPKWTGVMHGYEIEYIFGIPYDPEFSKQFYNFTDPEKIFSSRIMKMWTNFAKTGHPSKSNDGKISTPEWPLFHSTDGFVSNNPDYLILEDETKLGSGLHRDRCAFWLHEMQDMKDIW

Where two headings read alike, the source gives them in different places.

Experiment [1] deals with T1, rSmTAChE (Schistosoma mansoni, UniProt A0A3Q0KMM5). The following applies: Table S1, Repurposing Hub.
In experiment [2] the target is T1, rSmTAChE. The following applies: dose response analysis of Drug Repurposing Hub hits against rSmTAChE; for IC50: read-out: qAC50 (IC50), rSmTAChE.
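For Inhibition (%) (Average) in this document: mostly 20 µM final but a few compounds at 5 or 10 µM.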
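For Inhibition (%) Replicate A in this document: mostly 20 µM final but a few compounds at 5 or 10 µM.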
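For Inhibition (%) Replicate B in this document: mostly 20 µM final but a few compounds at 5 or 10 µM.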

A word on the IC50: it is the concentration at which inhibition is half-maximal. As to `CCCn1c(=O)[nH]c2nc(-c3ccc(S(=O)(=O)N4CCN(c5ccc(Cl)cc5)CC4)cc3)[nH]c2c1=O`, in experiment [1] (Concentration Av 10 µM), the “Inhibition (%) (Average)” value stood at 63.69%, the “Inhibition (%) Replicate A” value came to 63.02% and the “Inhibition (%) Replicate B” value was found to be 64.35%. In addition, in experiment [2], the “Data Mode (curve class), rSmTAChE” value is on record as “decreasing (weakly active)” and the IC50 was over 6.8 µM.

For `COc1cccc(-n2nc(C(=O)O)cc2-c2ccc(C3CCCCC3)c(Cl)c2)c1`, in experiment [1] (Concentration Av 10 µM), the “Inhibition (%) (Average)” value was determined as 73.41%, the “Inhibition (%) Replicate A” value is 73.41% and the “Inhibition (%) Replicate B” value is on record as 73.41%. In addition, in experiment [2], the “Data Mode (curve class), rSmTAChE” value is listed as “decreasing (weakly active)” and the half-maximal inhibitory concentration (IC50) was over 6.8 µM.

Consider `Cc1c(OCc2cccc(-c3ccc(C(=O)O)cc3)c2)cc2c(c1C)C(=O)C(C1CCCC1)C2` (centres unmarked), for which, in experiment [1] (Concentration Av 5 µM), the “Inhibition (%) (Average)” value worked out at 73.56%, the “Inhibition (%) Replicate A” value turned out to be 73.27% and the “Inhibition (%) Replicate B” value came out at 73.84%. Besides, the “Data Mode (curve class), rSmTAChE” value in experiment [2] is listed as “decreasing”.
